As a reminder, the Ki is the dissociation constant of the complex between target and ligand, obtained from inhibition or displacement.

The chains behind the UniProt entries cited, without tags or fusion partners. Residues count along the entry.
UniProt P27958, 1027-1657 limits assumed: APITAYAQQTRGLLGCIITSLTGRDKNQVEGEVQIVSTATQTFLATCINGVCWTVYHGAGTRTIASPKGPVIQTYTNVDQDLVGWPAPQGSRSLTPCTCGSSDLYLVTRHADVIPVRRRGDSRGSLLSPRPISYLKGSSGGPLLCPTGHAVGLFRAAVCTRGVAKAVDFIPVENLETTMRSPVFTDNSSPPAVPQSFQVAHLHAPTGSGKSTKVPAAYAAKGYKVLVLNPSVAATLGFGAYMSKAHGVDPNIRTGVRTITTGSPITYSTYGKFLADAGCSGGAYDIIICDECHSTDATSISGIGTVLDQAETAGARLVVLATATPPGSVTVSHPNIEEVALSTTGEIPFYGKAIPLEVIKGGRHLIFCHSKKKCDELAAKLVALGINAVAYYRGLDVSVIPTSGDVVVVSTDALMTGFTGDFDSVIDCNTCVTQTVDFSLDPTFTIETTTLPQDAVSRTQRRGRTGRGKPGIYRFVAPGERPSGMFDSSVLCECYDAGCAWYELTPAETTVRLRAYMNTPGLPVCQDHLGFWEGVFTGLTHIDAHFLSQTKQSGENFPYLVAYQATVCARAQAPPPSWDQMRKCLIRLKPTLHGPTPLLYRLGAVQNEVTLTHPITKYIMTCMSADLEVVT
UniProt P27958, 1658-1711 partner limits assumed: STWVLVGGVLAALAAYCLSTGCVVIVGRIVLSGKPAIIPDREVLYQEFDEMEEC

These results are taken from patent US7592316B2, “Peptides as NS3-serine protease inhibitors of hepatitis C virus” (Schering Corporation, priority 2000, dated 2009).

Read-outs that look alike come from different tables or passages of the source.

This assay deals with HCV NS3/NS4A protease (strain 1a) (Hepatitis C virus genotype 1a, UniProt P27958).
[1] abbreviates: read-out: Ki* Range, Table 5, HCV NS3/NS4A protease, 30° C., pH 6.5.
Where [2] appears, read: read-out: Ki* Range, Table 4, HCV NS3/NS4A protease, spectrophotometric assay, 30° C., pH 6.5.
Where [3] appears, read: Table 6, HCV NS3/NS4A protease, 30° C., pH 6.5.
[4] abbreviates: read-out: Ki* Range, Table 5, HCV NS3/NS4A protease, spectrophotometric assay, 30° C., pH 6.5.

On to `C=CCCC(NC(=O)[C@@H]1C2C(CN1C(=O)[C@@H](NC(=O)NCC13CC4CC(CC(C4)C1)C3)C1Cc3ccccc3C1)C2(C)C)C(=O)C(=O)NCC=C` (stereo partly drawn), for which the Ki under setting [1] fell in the range of 101 to 1000 nM. Turning to `CCCC(NC(=O)[C@@H]1[C@@H]2[C@H](CN1C(=O)[C@@H](NC(=O)OCC(C)C)C1CCCCC1)[C@H]2C(=O)OCC)C(=O)C(=O)NCC(=O)NC(C(=O)N(C)C)c1ccccc1` (stereo partly drawn), the Ki under setting [2] was in the range of 1 to 100 nM. Consider `CN(C)C(=O)[C@@H](NC(=O)CNC(=O)C(=O)C(CCC(F)(F)F)NC(=O)[C@@H]1[C@H]2CC(C)(C)O[C@H]2CN1C(=O)[C@@H](NC(=O)OC(C)(C)C)C1CCCCC1)c1ccccc1` (stereo partly drawn), for which the Ki under setting [3] lay in the range of 1 to 100 nM. Take `NC(=O)C(=O)C(CC1CCC1)NC(=O)[C@@H]1[C@@H]2[C@H](CN1C(=O)[C@@H](NC(=O)OC1CC3CCC1C3)C1CCCCC1)C2(Cl)Cl` (stereo partly drawn): under setting [3], the Ki lay within 1 to 100 nM.

For the compound `CCCC(NC(=O)[C@@H]1CCC(C)N1C(=O)[C@@H](NC(=O)OCC(C)C)C1CCCCC1)C(=O)C(=O)NCC(=O)NC(C(=O)O)c1ccccc1` (stereo partly drawn), under setting [2], the Ki was in the range of 1 to 100 nM. For `C=CCNC(=O)C(=O)C(CCC)NC(=O)[C@@H]1[C@@H]2[C@H](CN1C(=O)[C@H](CC(C)(C)C)NC(=O)OC(C)(C)C)C2(C)C` (stereo partly drawn), the Ki under setting [4] is over 1000 nM. Turning to `CCCC(NC(=O)[C@@H]1C[C@@H](c2ccccc2)CN1C(=O)[C@@H](NC(=O)OC(C)(C)C)C1CCCCC1)C(=O)C(=O)NCC(=O)N[C@H](C(=O)O)c1ccccc1` (stereo partly drawn), for the setting “read-out: Ki* Range, HCV protease continuous assay results, Table 1”, the Ki was over 1000 nM.

On to `CCCC(NC(=O)[C@@H]1CC(C)(C)CN1C(=O)C(NC(=O)OC(C)(C)C)C(C)(C)C)C(=O)C(=O)NCC(=O)NC(C)c1ccccc1` (stereo partly drawn), for which the Ki under setting [4] was over 1000 nM. `CCCC(NC(=O)C1CC2(CCCC2)CN1C(=O)[C@@H](NC(=O)OCC(C)C)C1CCCCC1)C(=O)C(=O)NCC(=O)N[C@H](C(=O)O)c1ccccc1` (stereo partly drawn): under setting [2], the Ki fell in the range of 1 to 100 nM.

Take `C#CCNC(=O)CNC(=O)C(=O)C(CCC)NC(=O)[C@@H]1[C@@H]2[C@H](CN1C(=O)[C@@H](NC(=O)OC(C)(C)C)C(C)(C)C)C2(C)C` (single isomer, unassigned): under setting [4], the Ki is 101 to 1000 nM.

In the case of `C=CCCNC(=O)C(=O)C(CC1CC1)NC(=O)[C@@H]1[C@@H]2[C@H](CN1C(=O)[C@@H](NC(=O)OC(C)(C)C)C1CCCCC1)C2(C)C` (stereo partly drawn), the Ki under setting [4] is over 1000 nM. In turn, `CN(C)C(=O)[C@@H](NC(=O)CNC(=O)C(=O)C(CC1CCCC1)NC(=O)C1[C@H]2CC(C)(C)O[C@H]2CN1C(=O)[C@@H](NC(=O)OC(C)(C)C)C(C)(C)C)c1ccccc1` (stereo partly drawn) displayed a Ki under setting [3] of 1 to 100 nM. `C=CCCC(NC(=O)[C@@H]1C2C(CN1C(=O)[C@@H](NC(=O)NC13CC4CC(CC(C4)C1)C3)C1Cc3ccccc3C1)C2(C)C)C(=O)C(=O)NCC=C` (stereo partly drawn): under setting [1], the Ki fell in the range of 101 to 1000 nM. Same read-out and setting: as for `C=CCCC(NC(=O)[C@@H]1C2C(CN1C(=O)[C@@H](NC(=O)OC13CC4CC(CC(C4)C1)C3)C1Cc3ccccc3C1)C2(C)C)C(=O)C(=O)NCC=C` (stereo partly drawn), the figure is 101 to 1000 nM. Regarding `CCCC(NC(=O)[C@@H]1[C@@H]2[C@H](CN1C(=O)[C@@H](NC(=O)OCC(C)C)C1CCCCC1)[C@@H]2C(=O)OCC)C(=O)C(=O)NCC(=O)NC(C(=O)N(C)C)c1ccccc1` (stereo partly drawn), under setting [2], the Ki fell in the range of 1 to 100 nM. On to `C=CCC(NC(=O)[C@@H]1[C@@H]2[C@H](CN1C(=O)[C@@H](NC(=O)OC(C)(C)C)C(C)(C)C)C2(C)C)C(=O)C(=O)NCC(=O)NCc1ccccn1` (stereo partly drawn), for which the inhibition constant (Ki) under setting [4] was 101 to 1000 nM. As for `CC(C)COC(=O)N[C@H](C(=O)N1CC(C)(C)C[C@H]1C(=O)NC(CC(C)C)C(=O)C(=O)NCC(=O)NC(C(=O)N(C)C)c1ccccc1)C(C)(C)C` (stereo partly drawn), under setting [2], the Ki is 1 to 100 nM. On the same count and under the same terms, as for `CCCC(NC(=O)C1C[C@@H](O)CN1C(=O)[C@@H](NC(=O)OCC)C1CCCCC1)C(=O)C(=O)NCC(=O)N[C@H](C(=O)O)c1ccccc1` (stereo partly drawn), the figure is 101 to 1000 nM.
